Experimental data taken from patent publication US11567075B2, “Immunochromatographic device, immunochromatographic kit and immunochromatographic detection method” (TANAKA KIKINZOKU KOGYO K.K., priority 2018, dated 2023).

System: inactivated Group A β-hemolytic streptococcus
Assay: Immunochromatographic detection, visual evaluation of red line on detection part
Parameters: key: “+” (positive) when the red line on the detection part (4) could be visually observed; “++” (strong positive) when the red line could be visually observed clearly; “±” (weak positive) when a light red line could be visually observed; “−” (negative) when the red line could not be visually observed
Details: for Result of Visual Evaluation (After Storage at 50° C. for 24 Hours): device stored at 50° C. for 24 hours, then positive analyte sample 5×10^5 org/mL, after 5 minutes; for Result of Visual Evaluation (After 5 Minutes): positive analyte sample 5×10^5 org/mL, 150 μL

| Molecule | Result of Visual Evaluation (After Storage at 50° C. for 24 Hours) | Result of Visual Evaluation (After 5 Minutes) |
| --- | --- | --- |
| O=C1OC(=O)C2CC3C(=O)OC(=O)C3CC12 (centres unmarked) [Example 7, 1,2,4,5-cyclohexanetetracarboxylic dianhydride] | ++ | ++ |
| tetrapropenylsuccinic anhydride [Example 3] | ± | ± |
| CC#Cc1ccc2c(c1)C(=O)OC2=O [Example 5, 4-(1-propynyl)phthalic anhydride] | + | + |
| O=C(ON1C(=O)CCC1=O)c1ccccc1 [Comparative Example 1, N-(benzoyloxy)succinimide] | − | − |
| O=C(O)CN(CCO)CCO [compound 5, N,N-bis(2-hydroxyethyl)glycine] | − | − |
| O=C1OC(=O)C2C3C=CC(C12)C1C(=O)OC(=O)C31 (centres unmarked) [Example 1, bicyclo[2,2,2]oct-7-ene-2,3,5,6-tetracarboxylic dianhydride] | ++ | ++ |
| O=C1CC(C2CC3C(=O)OC(=O)C3c3ccccc32)C(=O)O1 (centres unmarked) [Example 8, 4-(2,5-dioxotetrahydrofuran-3-yl)-1,2,3,4-tetrahydronaphthalene-1,2-dicarboxylic anhydride] | ++ | ++ |
| O=C1OC(=O)[C@@H]2CC=CC[C@H]12 [Comparative Example 9, cis-4-cyclohexene-1,2-dicarboxylic anhydride] | − | + |
| octadecenylsuccinic anhydride [Example 4] | ± | ± |
| CC(=O)Nc1cccc2c1C(=O)OC2=O [Example 6, 3-acetamidophthalic anhydride] | + | + |
